Measured values from several laboratories, pooled; numbers as filed in NIAID ChemDB.

Common to all: whole-cell or culture tests

Conditions beyond the fields shown may differ between rows. MIC50, MIC90 and the like: level of inhibition, or share of isolates inhibited. Percent inhibition refers to the dose given; in toxicity tests it is the harm to the cells.

NCCCC[C@H](NC(=O)[C@H](CCCN=C(N)N)NC(=O)[C@H](CCCN=C(N)N)NC(=O)[C@H](CCCCN)NC(=O)[C@H](CCCCN)NC(=O)[C@@H](N)CCCCN)C(=O)N[C@@H](CCCN=C(N)N)C(=O)O ; endpoint: inhibition ; tested at: 25 µM ; species: Candida albicans ; strain or isolate: ATCC 10231 ; result: 0%
CC1(C)O[C@H]2[C@H](O)[C@@H](N=[N+]=[N-])C=C(c3ccc(C=O)cc3)[C@H]2O1 ; endpoint: inhibition ; method: broth dilution / turbidity ; tested at: 15.6 µg/mL ; species: Candida tropicalis ; strain or isolate: C 131 ; result: 0%
CC1CC(=O)N(c2ccc(Cl)cc2)C1=O ; endpoint: MIC ; method: broth dilution / turbidity ; species: Candida lusitaniae ; strain or isolate: CCC 134-2000 ; result: 250 µg/mL
Cc1ccc(C(O)c2cccc(C(=O)CCn3ccnc3)c2)cc1 ; endpoint: MIC ; method: broth dilution ; species: Candida kefyr ; strain or isolate: RTCC 1019 ; result: 1 µg/mL
CC(C)(O)c1cn(-c2ccc3ccccc3c2)nn1 ; endpoint: inhibition ; method: broth dilution ; tested at: 2048 µg/mL ; species: Candida albicans ; strain or isolate: URM 4819 ; result: 0%
OC(CCn1ccnc1)c1cccc(C(O)c2ccc(Cl)cc2)c1 ; endpoint: MIC ; method: broth dilution ; species: Candida kefyr ; strain or isolate: RTCC 1074 ; result: >64 µg/mL
CC(C)(O)c1cn(-c2cccc3ccccc23)nn1 ; endpoint: inhibition ; method: broth dilution ; tested at: 2048 µg/mL ; species: Candida albicans ; strain or isolate: URM 4820 ; result: 0%
CCCCCOc1ccc(-c2cc(-c3ccc(C(=O)N[C@H]4C[C@@H](O)[C@@H](O)NC(=O)[C@@H]5[C@@H](O)[C@@H](C)CN5C(=O)[C@H]([C@H](O)CC(N)=O)NC(=O)[C@H]([C@H](O)[C@@H](O)c5ccc(O)c(OS(=O)(=O)O)c5)NC(=O)[C@@H]5C[C@@H](O)CN5C(=O)[C@H]([C@@H](C)O)NC4=O)cc3)no2)cc1 ; endpoint: MIC90 ; method: broth dilution ; species: Candida spp. ; strain or isolate: Fluconazole-resistant ; result: 0.03 µg/mL
CC(C)(O)c1cn(-c2ccc([N+](=O)[O-])cc2)nn1 ; endpoint: inhibition ; method: broth dilution ; tested at: 2048 µg/mL ; species: Candida parapsilosis ; strain or isolate: URM 3621 ; result: 0%
CCC(C)n1ncn(-c2ccc(N3CCN(c4ccc(OC[C@H]5CO[C@](Cn6cncn6)(c6ccc(Cl)cc6Cl)O5)cc4)CC3)cc2)c1=O ; endpoint: MIC50 ; method: broth dilution ; species: Candida spp. ; strain or isolate: Fluconazole-resistant ; result: 2 µg/mL
O=C(CCn1ccnc1)c1ccc(-c2ccccc2)cc1 ; endpoint: MIC ; method: broth dilution ; species: Candida guilliermondii ; strain or isolate: RTCC 1377 ; result: 4 µg/mL
C[C@@H]1C(=O)N(Cc2ccccc2)C(=O)[C@@H]1C ; endpoint: MIC ; method: broth dilution / turbidity ; species: Candida lusitaniae ; strain or isolate: CCC 134-2000 ; result: 62.5 µg/mL
OC(CCn1ccnc1)c1cccc(C(O)c2ccc(Cl)c(Cl)c2)c1 ; endpoint: MIC ; method: broth dilution ; species: Candida guilliermondii ; strain or isolate: RTCC 1377 ; result: 64 µg/mL
CC1CC(=O)N(c2ccc(F)cc2)C1=O ; endpoint: MIC ; method: broth dilution / turbidity ; species: Candida lusitaniae ; strain or isolate: CCC 134-2000 ; result: 250 µg/mL
C=CCc1ccc(O)c(OC)c1 ; endpoint: MIC90 ; method: turbidity ; species: Candida tropicalis ; strain or isolate: 3178 ; result: 495 µg/mL
Cc1ccc(-n2cc(C(C)(C)O)nn2)cc1C ; endpoint: inhibition ; method: broth dilution ; tested at: 2048 µg/mL ; species: Candida albicans ; strain or isolate: URM 4388 ; result: 0%
C[C@H]1[C@H](O)[C@@H](C)/C=C/C=C/C=C/C=C/C=C/C=C/C=C/[C@H](O[C@@H]2O[C@H](C)[C@@H](O)[C@H](N)[C@@H]2O)C[C@@H]2O[C@](O)(C[C@@H](O)C[C@@H](O)CC[C@H](O)[C@@H](O)C[C@@H](O)CC(=O)O[C@H]1C)C[C@H](O)[C@H]2C(=O)O ; endpoint: MIC ; method: broth dilution / turbidity ; species: Candida parapsilosis ; strain or isolate: CCC 124-2000 ; result: 0.98 µg/mL